Results as given in PMC9024893, “1,2,4-Trioxolane and 1,2,4,5-Tetraoxane Endoperoxides against Old-World Leishmania Parasites: In Vitro Activity and Mode of Action” (Pharmaceuticals, 2022).

Experiments:
[1] = test system: L. infantum IMT151 promastigotes; assay: Promastigotes susceptibility assay (MTT), L. infantum; format: cell-based, Leishmania infantum; conditions: for SI (J774A.1), L. infantum promastigotes: CC50 in J774A.1 / IC50 of promastigotes; for SI (THP-1), L. infantum promastigotes: CC50 in THP-1 / IC50 of promastigotes; for SI, human cell line (THP-1), promastigotes: text bound, both Leishmania species
Description: (§1) Promastigote forms of strains of L. infantum (MHOM/PT/1988/IMT151) and L. donovani (MHOM/BD/2006/BD14) were cultured at 24 °C ± 1 °C in M199 medium (Sigma) supplemented with 20% foetal bovine serum (FBS, Sigma) and 1% penicillin-streptomycin (Sigma). L. infantum strain belongs to IHMT, Portugal cryobank collection and the L. donovani strain was kindly provided by Dr. Katrin Kuhls, Technical University of Applied Sciences Wildau, Germany. Promastigotes used for the experiments had 7 to 12 in vitro passages in culture after isolation from mice, in order to keep virulence, and were used when the stationary phase of growth was reached (day 5 to 6), corresponding to the highest promastigotes density.
(§2) For the determination of the antileishmanial activity and IC50, promastigotes of L. infantum and L. donovani were plated in 96-well flat bottom culture plates at a concentration of 5 × 10^6 parasites/mL and incubated with six serial concentrations of each compound (Table 3), in four replicates, including the control drugs, amphotericin B, miltefosine and pentamidine. One untreated control (parasites with M199 medium plus 0.5% DMSO as vehicle solution) and one blank (M199 medium alone) were also plated out in quadruplicate. After 48 h incubation at 24 °C ± 1 °C, the inhibitory activity of the compounds was evaluated using the MTT, as previously described, with an additional 4 h incubation at 36 °C. Results were expressed in terms of percentage of parasite viability relative to nontreated control and IC50 was calculated fitting the data as a non-linear regression with variable slope using a dose-response inhibitory model, in the GraphPad Prism V 8.0 program. Each compound was tested in three independent assays. […]

[2] = test system: L. donovani BD14 promastigotes; assay: Promastigotes susceptibility assay (MTT), L. donovani; format: cell-based, Leishmania donovani; conditions: for SI (J774A.1), L. donovani promastigotes: CC50 in J774A.1 / IC50 of promastigotes; for SI (THP-1), L. donovani promastigotes: CC50 in THP-1 / IC50 of promastigotes
Description: as §1, §2

[3] = test system: L. donovani BD14 intracellular amastigotes; assay: Intracellular amastigotes assay in J774A.1 macrophages, L. donovani; format: cell-based, Leishmania donovani; conditions: for SI (J774A.1), L. donovani amastigotes: CC50 in J774A.1 / IC50 of amastigotes; for SI (THP-1), L. donovani amastigotes: CC50 in THP-1 / IC50 of amastigotes
Description: (§3) The intracellular assay using the macrophage J774A.1 cell line was performed with the compounds that presented best SI on the promastigote’s susceptibility assay. J774A.1 cells were adjusted to 2.5 × 10^5 cells/mL in supplemented DMEM medium. 200 μL/well of the cell suspension was placed in 16 well Lab Tek culture glass slides (Nunc), and incubated at 37 °C ± 1 °C, 5% CO2, for 3 h, to enable the cells to adhere to the slides. After a washing step with DMEM to discard non-attached cells, the cells were infected with 2.5 × 10^6 cells/mL promastigotes in a 10:1 parasite-host cell proportion for 24 h. Compounds and control drugs were added in two replicates of six serial concentrations (Table 3). As negative control, macrophages were cultivated in medium and DMSO, as vehicle solution (0.5% v/v). Slides were incubated for 48 h at the same temperature. After a washing step with 1× PBS (Sigma), slides were fixed and stained, and the infection index was calculated according to [34] by counting the number of intracellular amastigotes per 100 macrophages, in treated and untreated cells. Two independent experiments were performed to determine the amastigotes IC50 of each compound, which was calculated by fitting the data as a non-linear regression with variable slope using a dose-response inhibitory model, in the GraphPad Prism V 8.0 program. SI was determined as described above.

[4] = test system: L. infantum IMT151 intracellular amastigotes; assay: Intracellular amastigotes assay in J774A.1 macrophages, L. infantum; format: cell-based, Leishmania infantum; conditions: for SI (J774A.1), L. infantum amastigotes: CC50 in J774A.1 / IC50 of amastigotes; for SI (THP1), L. infantum amastigotes: CC50 in THP-1 / IC50 of amastigotes
Description: as §3

| SMILES | SI (J774A.1), L. infantum promastigotes [1] | SI (THP-1), L. infantum promastigotes [1] | SI (J774A.1), L. donovani promastigotes [2] | SI (THP-1), L. donovani promastigotes [2] | SI (J774A.1), L. donovani amastigotes [3] | SI (THP-1), L. donovani amastigotes [3] | SI (J774A.1), L. infantum amastigotes [4] | SI, human cell line (THP-1), promastigotes [1] | SI (THP1), L. infantum amastigotes [4] |
| --- | --- | --- | --- | --- | --- | --- | --- | --- | --- |
| C[C@@H]1[C@H](O)[C@@H](C)/C=C/C=C/C=C/C=C/C=C/C=C/C=C/[C@H](O[C@@H]2O[C@H](C)[C@@H](O)[C@H](N)[C@@H]2O)C[C@@H]2O[C@](O)(C[C@@H](O)C[C@@H](O)[C@H](O)CC[C@@H](O)C[C@@H](O)CC(=O)O[C@H]1C)C[C@H](O)[C@H]2C(=O)O [AmB, amphotericin B, reference compound] | 467.7 | 151.0 | 282.5 | 91.2 | 898.4 | 40.4 | 898.4 | – | – |
| OCC1CCC2(CC1)OOC1(O2)C2CC3CC(C2)CC1C3 (centres unmarked) [LC93] | 0.0 | 0.4 | 0.1 | 1.2 | – | – | – | – | – |
| O=S1(=O)N=C(OCC2CCC3(CC2)OOC2(O3)C3CC4CC(C3)CC2C4)c2ccccc21 (centres unmarked) [LC129] | 1.2 | 1.3 | 1.3 | 1.5 | – | – | – | – | – |
| Cn1nnc(NCC2CCC3(CC2)OOC2(O3)C3CC4CC(C3)CC2C4)n1 (centres unmarked) [LC131] | 0.1 | 0.2 | 0.3 | 0.6 | – | – | – | – | – |
| c1ccc(-n2nnnc2OCC2CCC3(CC2)OOC2(O3)C3CC4CC(C3)CC2C4)cc1 (centres unmarked) [LC132] | 3.5 | 7.7 | 3.2 | 7.0 | 4.9 | – | 3.5 | higher than 7 | 7.6 |
| C1C2CC3CC1CC(C2)C31OOC2(CCC(Nc3nnn[nH]3)CC2)O1 (centres unmarked) [LC136, N-1H-1,2,3,4-Tetraazol-5-yl-dispiro[cyclohexane-1,3'-[1,2,4]trioxolane-5',2''-tricyclo[3.3.1.13,7]decan]-4-ylamine] | 0.3 | 0.6 | 0.5 | 1.1 | – | – | – | – | – |
| C1CCC2(CC1)OOC1(OO2)C2CC3CC(C2)CC1C3 [LC137] | – | – | – | – | – | 7.5 | – | higher than 7 | – |
| CCOC(=O)C1CCC2(CC1)OOC1(OO2)C2CC3CC(C2)CC1C3 (centres unmarked) [LC138] | 4.2 | 22.6 | 2.2 | 11.9 | 1.2 | 10.6 | 22.1 | higher than 7 | 118.6 |
| O=C1CCC2(CC1)OOC1(OO2)C2CC3CC(C2)CC1C3 [LC140] | 2.6 | 5.4 | 1.5 | 3.0 | – | – | – | – | – |
| OCC1CCC2(CC1)OOC1(OO2)C2CC3CC(C2)CC1C3 (centres unmarked) [LC146] | 3.0 | 6.6 | 1.8 | 4.1 | – | – | – | – | – |
| C1C2CC3CC1CC(C2)C31OOC2(CCC(Nc3nnn[nH]3)CC2)OO1 (centres unmarked) [LC163] | 2.5 | 4.0 | 0.9 | 1.4 | – | – | – | – | – |
| CCCCCCCCCCCCCCCCOP(=O)([O-])OCC[N+](C)(C)C [Miltefosine, reference compound] | 0.6 | 0.7 | 3.9 | 4.1 | 7.1 | 6.7 | 5.6 | – | 6.0 |
